Record: PubChem BioAssay AID1259414 (Drosophila RNAi Screening Center, 2018)
Test: 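Fly genes that alter Wolbachia amount inside host cells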 (primary screen). Cells: Drosophila JW18 cells infected with Wolbachia. Knock-down reagent: long dsRNA against Drosophila genes, 0.25 µg dsRNA per well of a 384-well plate. Time to read-out: 5 days. Challenge: cells persistently infected with Wolbachia before knock-down; no added drug. Detection: 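Imaged fluorescence in situ signal for Wolbachia 23S rRNA per DAPI-counted host cell, given as a robust z-score within each plate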. Direction: Wolbachia per cell robust z: higher = more Wolbachia per host cell than the plate typical. Call rule: 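Hit when robust z is 1.5 or more, or -1.5 or less, in at least two of three replicates; excludes dsRNAs with several or no targets, genes not expressed in JW18 and well A1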.
The deposit covers about 24,000 reagents; below is a random part of those that have a named target and a result. Over the whole deposit, about 1,210 (5%) were called active. 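Inactive calls also include excluded dsRNAs with several or no targets, genes unexpressed in JW18, and well A1, regardless of score.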 Reagents against one gene are numbered here. A plus sign joins genes that one reagent is predicted to hit.

no.	target	dsRNA no.	Wolbachia per cell robust z, rep 1	Wolbachia per cell robust z, rep 2	Wolbachia per cell robust z, rep 3	outcome
1	CG9175	1	1.63	0.294	0.993	inactive
2	CG9175	2	1.82	1.71	1.47	active
3	CG31913	1	-0.552	-1.08	0.122	inactive
4	CG31913	2	-1.2	0.48	-0.457	inactive
5	CG13712	1	0.233	1.19	-0.647	inactive
6	Aef1 (Adult enhancer factor 1)	1	-0.694	-0.177	-0.178	inactive
7	Nrg (Neuroglian)	1	-0.733	-0.928	-2.52	inactive
8	Nrg (Neuroglian)	2	1.94	-0.0301	-0.51	inactive
9	Nrg (Neuroglian)	3	-0.446	-0.78	-0.797	inactive
10	CG12984	1	-1.14	0.6	-0.551	inactive
11	CG34297	1	-0.294	0.317	0.519	inactive
12	CG1695	1	-0.399	-0.088	0.476	inactive
13	CG1695	2	-0.453	0.24	-13	inactive
14	CG14646	1	0.0623	0.805	-0.201	inactive
15	CG14646	2	-0.243	0.96	0.811	inactive
16	GluProRS (Glutamyl-prolyl-tRNA synthetase)	1	0.678	-0.675	2.23	inactive
17	CG30278	1	-0.652	-0.914	-1.11	inactive
18	CG31226	1	-2.07	0.752	-1.15	inactive

In a second layout: results already given.
{"target":"CG13712","dsRNA no.":1,"Wolbachia per cell robust z, rep 1":0.233,"Wolbachia per cell robust z, rep 2":1.19,"Wolbachia per cell robust z, rep 3":-0.647,"outcome":"inactive"}
{"target":"Aef1 (Adult enhancer factor 1)","dsRNA no.":1,"Wolbachia per cell robust z, rep 1":-0.694,"Wolbachia per cell robust z, rep 2":-0.177,"Wolbachia per cell robust z, rep 3":-0.178,"outcome":"inactive"}

The listing continues.
no.	target	dsRNA no.	Wolbachia per cell robust z, rep 1	Wolbachia per cell robust z, rep 2	Wolbachia per cell robust z, rep 3	outcome
19	lncRNA:CR43250 (long non-coding RNA:CR43250)	1	0.713	0.642	0.952	inactive
20	CG7506	1	-8.05	-0.186	-9.36	active
21	Uch-L5 (Ubiquitin carboxy-terminal hydrolase L5)	1	0.179	-0.438	0.477	inactive
22	Uch-L5 (Ubiquitin carboxy-terminal hydrolase L5)	2	0.168	1.13	0.185	inactive
23	Plc21C (Phospholipase C at 21C)	1	0.533	1.09	0.795	inactive
24	CG14370	1	0.159	0.376	-0.468	inactive
25	CG14960	1	-1.1	-0.159	0.117	inactive
26	js (jiangshi)	1	-0.0332	0.179	-0.301	inactive
27	CG34174 + daed	1	-1.25	-1.87	0.0746	inactive
28	l(1)10Bb (lethal (1) 10Bb)	1	2.45	2.59	3.36	active
